Measurements as given in patent US20160376333A1, “Polypeptides to inhibit epstein barr viral protein BHRF1 and B cell lymphoma family proteins” (University of Washington, published 2016).

Biological target: T1, Epstein-Barr virus BHRF1 a.a. 1-161 with C-terminal avi-6his tag (Epstein-Barr virus)
T1 construct: also called EBV BHRF1; BHRF1-biotin
T1 chain: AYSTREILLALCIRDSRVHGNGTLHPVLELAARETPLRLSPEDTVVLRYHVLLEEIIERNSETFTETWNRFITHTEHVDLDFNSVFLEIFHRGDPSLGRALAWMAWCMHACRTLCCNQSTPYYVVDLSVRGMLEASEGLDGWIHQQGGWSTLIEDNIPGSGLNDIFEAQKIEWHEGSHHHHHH
Experiment: yeast surface display titration (apparent KD)

B1: BbpD04.3 (designed binder)
chain: ADWKKVLDKAKDIAENRVRELKQKLEEFYKEAMKLDLTQEMRRKLMLRWIAAMLMAIGDIFNAIRQAKQEADKLKKAGLVNSQQLDELKRRLEELKEEASRKARDYGREFQLKLEY
With B1 the Kd was 0.54 nM.
